Pooled drug test results. Numbers come from NIAID ChemDB, via PubChem.

All rows: tests in culture

Two numbers with a dash give a range or band. MIC50, MIC90 and the like: level of inhibition, or share of isolates inhibited. Percent inhibition refers to the dose given; in toxicity tests it is the harm to the cells. ECn: concentration that inhibits the pathogen or its effect by n%. Lines come from different laboratories, so protocols vary. An empty or dashed field is not shown.

SMILES,strain,cells,measure,read by,tested at,agent,result
Cc1cc(OCCCc2ccc(Cl)nn2)cc(C)c1-c1noc(C(F)F)n1,-,HeLa,EC50,cytopathic effect,-,Enterovirus,0.033–0.659 µg/mL
O=C(NNC(=O)Nc1cc(C(F)(F)F)cc(C(F)(F)F)c1)Nc1ccc(C(F)(F)F)cc1,ES142,-,MIC,-,-,Escherichia coli,>300 µM
CCN(CC)CCN1C(=O)c2ccccc2NC1c1ccc(F)cc1,ANKA,-,EC50,luciferase,-,Plasmodium berghei,8 µM
Cn1cc(C(=O)NCc2ccc(Cl)cc2)c(=O)c2cc(CN3CCOCC3)ccc21,-,VERO,EC50,plaque count,-,Simian varicella-zoster virus,2.7 µM
CC(C)(O)c1cn(-c2ccc([N+](=O)[O-])cc2)nn1,URM 933,-,inhibition,broth dilution,2048 µg/mL,Candida tropicalis,0%
CCN(CC)CCN1C(=O)c2ccccc2NC1c1cccc(F)c1,ANKA,-,EC50,luciferase,-,Plasmodium berghei,20 µM
COc1ccc(Cc2cn(Cc3ccc(O)cc3)c(=N)n2C)cc1,ATCC 18824,-,MIC,-,-,Saccharomyces cerevisiae,>100 µg/mL
COC(c1cn([C@H]2C[C@H](O)[C@@H](CO)O2)c(=O)[nH]c1=O)C(Cl)Br,P3HR-1,RAJI,EC50,plaque count,-,Epstein-Barr virus,>25 µM
Fc1cccc(Cn2cnc3c(Nc4cccc(F)c4)nc(C(F)(F)F)nc32)c1,Serotype 32,M-HELA,EC50,plaque count,-,Rhinovirus,5.7 µM
Cn1cc(C(=O)NCc2ccc(Cl)cc2)c(=O)c2cc(CN3CCOCC3)ccc21,CA varicella isolate,HFF,inhibition,plaque count,2.2 µM,Varicella zoster virus,90%
O=C(NCc1ccc(Cl)cc1)c1c[nH]c2ccc(C#CCO)cc2c1=O,DYE,-,EC50,plaque count,-,Varicella zoster virus,0.3 µM
COCc1ccc(CCCOc2cc(C)c(-c3noc(C(F)(F)F)n3)c(C)c2)nn1,-,HeLa,EC50,cytopathic effect,-,Enterovirus,0.033–0.659 µg/mL
CN1CCN(C(=O)c2ccc3nc4ccccc4c(NCCc4c[nH]c5ccccc45)c3c2)CC1,-,BHK,EC50,replicon,-,West Nile virus,13.7 µM
O=C(Nc1cc(C(F)(F)F)cc(C(F)(F)F)c1)NN(Cc1cccc(O)c1)C(=O)Nc1cc(C(F)(F)F)cc(C(F)(F)F)c1,ES142,-,MIC,-,-,Escherichia coli,150 µM
CC(C)(O)c1cn(-c2cccc3ccccc23)nn1,URM 3627,-,inhibition,broth dilution,2048 µg/mL,Candida parapsilosis,0%
Cc1cc(-c2noc(C(F)(F)F)n2)cc(C)c1OCCCc1ccc(C(C)(F)F)nn1,-,HeLa,EC50,cytopathic effect,-,Enterovirus,0.033–0.659 µg/mL
CCN(CC)CCN1C(=O)c2ccccc2NC1c1ccc(Br)cc1,ANKA,-,EC50,luciferase,-,Plasmodium berghei,0.46 µM
CCCCCCCCCCCC[N+](C)(C)COC1CCCC1,ATCC 6538,-,MBC,-,-,Staphylococcus aureus,14.4 µM
CC(C)CN(C[C@@H](O)[C@H](Cc1ccccc1)NC(=O)Cc1c[nH]c2ccccc12)S(=O)(=O)c1ccc(Br)cc1,-,CEM,EC50,MTT,-,SIV,6.3 µM
Cc1cc(O/C=C/Cc2ccc(Cl)nn2)cc(C)c1-c1noc(C(F)(F)F)n1,-,HeLa,EC50,cytopathic effect,-,Enterovirus,0.033–0.659 µg/mL
CCN(CC)C(=O)c1ccc2nc3ccccc3c(NC3CCN(Cc4ccccc4)CC3)c2c1,-,BHK,EC50,replicon,-,West Nile virus,12.5 µM
CCCc1cc(=O)oc2cc(OS(=O)(=O)c3ccc(C)cc3)cc(OS(=O)(=O)c3ccc(C)cc3)c12,Chicago-1,CV-1,EC50,virus yield,-,Measles virus,<1 µg/mL
CC(C)(O)c1cn(-c2ccccc2)nn1,URM 4261,-,inhibition,broth dilution,2048 µg/mL,Candida parapsilosis,0%
O=c1[nH]c(=O)n([C@H]2C[C@H](O)[C@@H](CO)O2)cc1C(O)C(Br)I,P3HR-1,RAJI,EC50,plaque count,-,Epstein-Barr virus,79.6 µM
CCC(=O)C(CC/C(=C/CCc1ccc(OC)c(OC)c1)CC)C(=O)CC,-,-,MIC,-,-,Equine herpesvirus 4,>50 µg/mL
CC(=O)ONc1ccc(S(=O)(=O)N(Cc2ccccc2)C[C@@H](O)[C@H](Cc2ccccc2)NC(=O)[C@H](C(C)C)N2C(=O)c3ccccc3C2=O)cc1,-,CEM,EC50,MTT,-,SIV,8 µM
C=CCc1ccc(O)c(OC)c1,3034,-,MIC90,turbidity,-,Candida albicans,490 µg/mL
Fc1cccc(Nc2nc(C(F)(F)F)nc3c2ncn3Cc2ccc(C(F)(F)F)cc2)c1,Serotype 5,M-HELA,EC50,plaque count,-,Rhinovirus,>40 µM
CCN(CC)CCN1C(=O)c2ccccc2NC1c1ccc(OC)c(COc2ccc(F)cc2)c1,ANKA,-,EC50,luciferase,-,Plasmodium berghei,2.5 µM
Cc1c(N)c(F)cc2c(=O)c(C(=O)O)cn(-c3cc(N)c(F)cc3F)c12,27 isolates (methicillin-resistant),-,MIC90,-,-,Staphylococcus aureus,0.015 µg/mL
CCCCCCCCCCCCSC[N+](C)(C)CCCCCCCCCCCC,ATCC 6538,-,MBC,-,-,Staphylococcus aureus,5.38 µM
Cc1nc(-c2cc(C)c(OCCCc3ccc(C=O)o3)c(C)c2)no1,-,HeLa,EC50,cytopathic effect,-,Enterovirus,0.033–0.659 µg/mL
CC(=O)ONc1ccc(S(=O)(=O)N(Cc2ccccc2)C[C@@H](O)[C@H](Cc2ccccc2)NC(=O)CCN2C(=O)c3ccccc3C2=O)cc1,-,CEM,EC50,MTT,-,SIV,5.4 µM
Cc1c(NCCCO)c(F)cc2c(=O)c(C(=O)O)cn(-c3cc(N)c(F)cc3F)c12,27 isolates (methicillin-resistant),-,MIC90,-,-,Staphylococcus aureus,0.015 µg/mL
CC(=O)ONc1ccc(S(=O)(=O)N(CC(C)C)C[C@@H](O)[C@H](Cc2ccccc2)NC(=O)[C@H](C)N2C(=O)c3ccccc3C2=O)cc1,-,CEM,EC50,MTT,-,SIV,2 µM
CCC(=O)C(CCCCCCc1cc(OC)c(O)c(OC)c1)C(=O)CC,-,-,MIC,-,-,Equine herpesvirus 4,>50 µg/mL
O=C(Nc1cccc(C2=NCCN2)c1)Nc1cccc(C2=NCCN2)c1,ES142,-,MIC,-,-,Escherichia coli,>300 µM
CCC(CC)[C@H](NC(C)=O)[C@@H]1[C@H](O)[C@@H](C(=O)O)C[C@H]1N=C(N)N,Harbin/07/94,MDCK,EC50,-,-,Influenza B virus,0.12 µM
O=C(NNC(=O)Nc1ccccc1C(F)(F)F)Nc1cc(C(F)(F)F)cc(C(F)(F)F)c1,KL21,-,MIC,-,-,Klebsiella pneumoniae,>300 µM
CCCc1cc(=O)oc2cc(OC(=O)C(C)(C)C)c3c(c12)OC(C)(C)C=C3,NS2,CV-1,EC50,cytopathic effect,-,Measles virus,0.2 µg/mL
CCCCCCCCCCCC[N+](C)(C)CSCCCCCCCC,ATCC33592,-,MBC,-,-,Staphylococcus aureus,24.4 µM
CC(=O)ONc1ccc(S(=O)(=O)N(CC(C)C)C[C@@H](O)[C@H](Cc2ccccc2)NC(=O)CCc2c[nH]c3ccccc23)cc1,-,CEM,EC50,MTT,-,SIV,8.4 µM
CC(C)(O)c1cn(-c2ccc3ccccc3c2)nn1,URM 3719,-,inhibition,broth dilution,2048 µg/mL,Candida albicans,0%
O=C(Nc1cccc(C2=NCCN2)c1)Nc1cccc(C(F)(F)F)c1,ES142,-,MIC,-,-,Escherichia coli,>300 µM
CCCCCCCCCCCC[N+](C)(C)COCCCCC,ATCC 6538,-,MBC,-,-,Staphylococcus aureus,3.57 µM
CN(C)c1ccc(Cn2cnc3c(Nc4cccc(F)c4)nc(C(F)(F)F)nc32)cc1,Serotype 4,M-HELA,EC50,plaque count,-,Rhinovirus,110 µM
CCCC(CCC)C(NC(C)=O)C1CC(C(=O)O)CC1N=C(N)N,H1N1 A/Beijing/252/95,MDCK,EC50,-,-,Influenza A virus,0.37 µM
CCOC(=O)C(CC/C(=C/CCc1ccc2c(c1)OCO2)CC)C(=O)CC,-,-,MIC,-,-,Equine herpesvirus 4,>50 µg/mL
O=C(CC(=O)Nc1cc(C(F)(F)F)cc(C(F)(F)F)c1)Nc1cc(C(F)(F)F)cc(C(F)(F)F)c1,KL21,-,MIC,-,-,Klebsiella pneumoniae,>300 µM
CCCCCCCCCCCC[N+](C)(C)COCC(C)C,ATCC33592,-,MBC,-,-,Staphylococcus aureus,29.8 µM
CC(C)CN(C[C@@H](O)[C@H](Cc1ccccc1)NC(=O)CCc1c[nH]c2ccccc12)S(=O)(=O)c1ccc(Br)cc1,-,CEM,EC50,MTT,-,SIV,12 µM
CN1CCN(C(=O)c2ccc3nc4ccccc4c(NC4CCN(Cc5ccccc5)CC4)c3c2)CC1,-,BHK,EC50,replicon,-,West Nile virus,15.5 µM
Nc1nc2c(ncn2COCCO)c(=O)[nH]1,Lymphotropic,GPE,EC50,virus yield,-,Guinea pig herpesvirus,<354 µg/mL
CCCCCCCCCCCC[N+](C)(C)COCC(C)CCC,ATCC33592,-,MBC,-,-,Staphylococcus aureus,3.3 µM
CCCc1cc(=O)oc2cc(OC(=O)CC)c3c(c12)OC(C)(C)C=C3,Chicago-1,CV-1,EC50,virus yield,-,Measles virus,<2 µg/mL
O=C(Nc1ccncc1)Nc1cc(C(F)(F)F)cc(C(F)(F)F)c1,KL21,-,MIC,-,-,Klebsiella pneumoniae,75 µM
NC(=NC1CCCC1)c1ccc(-c2ccc(-c3ccc(C(N)=NC4CCCC4)cc3)o2)cc1,Isolate CA2256 fluconazole-resistant,-,MFC,-,-,Candida albicans,50 µg/mL
CCCc1cc(=O)oc2c3c(c4c(c12)OC(C)(C)[C@H](O)[C@@H]4O)O[C@H](C)[C@@H](C)[C@@H]3O,SA,CV-1,EC50,cytopathic effect,-,Measles virus,5 µg/mL
CC(C)C[C@@H](C(=O)N[C@@H](Cc1ccccc1)[C@H](O)CN(CC(C)C)S(=O)(=O)c1ccc(Br)cc1)N1C(=O)c2ccccc2C1=O,-,CEM,EC50,MTT,-,SIV,7.6 µM
Nc1nc2c(ncn2COC(CO)CO)c(=O)[nH]1,-,REF,EC50,plaque count,-,Rat cytomegalovirus,24 µM
CCc1ccc(CCCOc2c(C)cc(-c3noc(C)n3)cc2C)nn1,-,HeLa,EC50,cytopathic effect,-,Enterovirus,0.033–0.659 µg/mL
CC(C)CN(C[C@@H](O)[C@H](Cc1ccccc1)NC(=O)CN1C(=O)c2ccccc2C1=O)S(=O)(=O)c1ccc(Br)cc1,-,CEM,EC50,MTT,-,SIV,3.5 µM
COC(c1cn([C@H]2C[C@H](O)[C@@H](CO)O2)c(=O)[nH]c1=O)C(Br)Br,P3HR-1,RAJI,EC50,plaque count,-,Epstein-Barr virus,>22.5 µM
CC(=O)N[C@H]1[C@H]([C@H](O)[C@H](O)CO)OC(C(=O)O)=C[C@@H]1N=C(N)N,Influenza A/Sydney/05/97 (H3N2),MDCK,EC50,-,-,Influenza A virus,0.45 µM
Cc1ccc(CCCCCOc2ccc(-c3noc(C(F)F)n3)c(C)c2)nn1,-,HeLa,EC50,cytopathic effect,-,Enterovirus,0.033–0.659 µg/mL
CNc1c(F)cc2c(=O)c(C(=O)O)cn(-c3cc(N)c(F)cc3F)c2c1C,ATCC51519,-,MIC,-,-,Enterococcus faecium,4 µg/mL

A second listing of 7 rows from above:

Cc1cc(O/C=C/Cc2ccc(Cl)nn2)cc(C)c1-c1noc(C(F)(F)F)n1 ; cells: HeLa ; measure: EC50 ; read by: cytopathic effect ; agent: Enterovirus ; result: 0.033–0.659 µg/mL
COC(c1cn([C@H]2C[C@H](O)[C@@H](CO)O2)c(=O)[nH]c1=O)C(Br)Br ; strain: P3HR-1 ; cells: RAJI ; measure: EC50 ; read by: plaque count ; agent: Epstein-Barr virus ; result: >22.5 µM
CC(C)C[C@@H](C(=O)N[C@@H](Cc1ccccc1)[C@H](O)CN(CC(C)C)S(=O)(=O)c1ccc(Br)cc1)N1C(=O)c2ccccc2C1=O ; cells: CEM ; measure: EC50 ; read by: MTT ; agent: SIV ; result: 7.6 µM
CCCCCCCCCCCCSC[N+](C)(C)CCCCCCCCCCCC ; strain: ATCC 6538 ; measure: MBC ; agent: Staphylococcus aureus ; result: 5.38 µM
CCOC(=O)C(CC/C(=C/CCc1ccc2c(c1)OCO2)CC)C(=O)CC ; measure: MIC ; agent: Equine herpesvirus 4 ; result: >50 µg/mL
O=C(Nc1cccc(C2=NCCN2)c1)Nc1cccc(C(F)(F)F)c1 ; strain: ES142 ; measure: MIC ; agent: Escherichia coli ; result: >300 µM
Cc1c(NCCCO)c(F)cc2c(=O)c(C(=O)O)cn(-c3cc(N)c(F)cc3F)c12 ; strain: 27 isolates (methicillin-resistant) ; measure: MIC90 ; agent: Staphylococcus aureus ; result: 0.015 µg/mL